Tested on: TBEV (Toro isolate)
Conditions: Vero-B4 cells, MOI 0.01, 3 days, estimated by visual inspection

CC(C)C[C@@H]1NC(=O)[C@]23CSC[C@H](NC(=O)[C@H](C)NC(=O)[C@H](Cc4ccccc4)NC1=O)C(=O)N[C@H](C(=O)O)CSSC[C@H](NC(=O)[C@@H]1CSC[C@]4(C[C@H](N)C(=O)N[C@@H](CC(=O)O)C(=O)N[C@@H](Cc5c[nH]c6ccccc56)C(=O)N4)C(=O)N[C@@H](CC(C)C)C(=O)N[C@@H](Cc4c[nH]c5ccccc45)C(=O)N[C@@H](CCC(=O)O)C(=O)N1)C(=O)N[C@@H](C2)C(=O)N[C@@H]([C@@H](C)O)C(=O)NCC(=O)N3 [LabyA2, Labyrinthopeptin A2]
IC50 of the anti-viral activity, TBEV: > 50 µg/mL | IC50 (read-out: IC50 of the anti-viral activity, TBEV): > 26 µM

— patent publication US11331371B2, “Labyrinthopeptins as anti-viral agents” (Helmholtz-Zentrum Für Infektionsforschung GMBH, priority 2015, dated 2022)
